The data set concerns intracellular amastigotes of L. (L.) infantum. The data set is described as follows: Intracellular amastigotes in peritoneal macrophages, light microscopy counting (infection index). The data set is classed as cell-based, Leishmania (L.) infantum. Conditions: for SI (Selectivity Index): ratio between CC50 in NCTC cells and IC50 in intracellular amastigotes. As to the method: Peritoneal macrophages (1 × 10^5 cell/well) in 16-well slide chambers (NUNC) were infected with amastigotes at a ratio of 10:1 (amastigotes/macrophage) and treated with compounds (60 to 10 µM) for 96 h. Stained slides (Giemsa) were counted using light microscopy and IC50 determined by the infection index. Miltefosine was used as standard and untreated cells as a negative control.

Regarding “1-Propyl-3-(1′-propyl-3′-methoxyphenoxy)-4,5-dimethoxybenzene [Compound 3]”, the “SI (Selectivity Index)” value worked out at 2.7.

“1-Propyl-3-(1′-propyl-3′-methoxyphenoxy)-5-methoxy-4-benzoyloxybenzene [Compound 2]”: the “SI (Selectivity Index)” value is over 32.8. For the same substance, for the setting “times higher than that of dehydrodieugenol B”, the “selectivity index relative to dehydrodieugenol B” value is reported as “approximately 3 times”.
